The source of these data is article PMC12057359, “Inhibitory effect of copper chelators on the budding in Candida albicans” (Antimicrobial Agents and Chemotherapy, 2025).

The experiment has as its system C. albicans JCM1542. Conditions: C. albicans JCM1542, MOPS-RPMI medium, 24 h.

As for H2O2, the “morphological change induced in C. albicans” value is listed as “completely distinct from those of the copper chelators”.
